Test results as given in patent publication EP2800973B1 (priority 2012, dated 2013).

Tested on: BoCell™ model cell line
Format: cell-based
Conditions: 24 hours of BoNT/A treatment with H7 equivalent to 72 hour BoNT/A treatments under current assay conditions

SMILES: CC1CNCCN1S(=O)(=O)c1cccc2cnccc12.Cl.Cl (stereo not shown) [H7, 1-(5-isoquinolinylsulfonyl)-2-methylpiperazine dichloride]
- assay time reduction: 48 h
